The text below walks through data of patent US4647687A, “Halogenated sulphides, process for their preparation and their use in microbicidal agents” (Bayer Aktiengesellschaft, priority 1983, dated 1987).

Values after ≈ are worked out from the molar mass of the structure shown.

Assay [1] has as its system Penicillium glaucum. The assay can be described thus: MIC against fungi, beerwort/peptone agar. The conditions noted are these: 28° C., 60 to 70% relative humidity, 2 weeks.
The test system of assay [2] is Aspergillus niger. Nature of the assay: MIC against fungi, beerwort/peptone agar. The conditions noted are these: 28° C., 60 to 70% relative humidity, 2 weeks.
Assay [3] concerns Sclerophoma pityophila. The assay can be described thus: MIC against fungi, beerwort/peptone agar. The conditions noted are these: 28° C., 60 to 70% relative humidity, 2 weeks.
Assay [4] concerns Alternaria tenuis. The assay can be described thus: MIC against fungi, beerwort/peptone agar. The conditions noted are these: 28° C., 60 to 70% relative humidity, 2 weeks.
The test system of assay [5] is Staphylococcus aureus. Nature of the assay: Action against bacteria (MIC in broth agar). The assay is classed as cell-based. The conditions noted are these: 28° C., 60 to 70% relative humidity, 2 weeks.
Assay [6] has as its system Eschercihia coli. The assay can be described thus: Action against bacteria (MIC in broth agar). In kind it is cell-based. The conditions noted are these: Escherichia coli; 28° C., 60 to 70% relative humidity, 2 weeks.

On to `N#CC=C(Cl)SCC(Cl)(Cl)C#N`, for which the MIC in assay [1] was 20 µg/mL (≈ 82.8 µM); in assay [2], 20 µg/mL (≈ 82.8 µM); in assay [3], 5 µg/mL (≈ 20.7 µM); in assay [4], 10 µg/mL (≈ 41.4 µM); in assay [5], 50 µg/mL (≈ 207 µM); in assay [6] it was 200 µg/mL (≈ 828 µM).
With `N#CC(Cl)=C(Cl)SCC(Cl)(Cl)C#N`, the MIC in assay [1] amounted to 10 µg/mL (≈ 36.2 µM); in assay [2], 10 µg/mL (≈ 36.2 µM); in assay [3], 2 µg/mL (≈ 7.25 µM); in assay [4], 5 µg/mL (≈ 18.1 µM); in assay [5], 50 µg/mL (≈ 181 µM); in assay [6], 50 µg/mL (≈ 181 µM).

What is called MIC is the lowest concentration that inhibits growth of the organism. A low value points to inhibition by little substance.
